Measured values taken from patent US8071797B2 (priority 2008, dated 2011).
pIC50: −log10 of the molar value.

Molecular target: HCV polymerase (NS5B570n-Con1) (Hepatitis C virus genotype 1b, UniProt Q9WMX2)
Experiment: HCV NS5B RNA polymerase activity assay
Format: biochemical, HCV Con1 strain
Settings: read-out: IC50 NS5B polymerase assay; Table I
Description: The enzymatic activity of HCV polymerase (NS5B570n-Con1) was measured as the incorporation of radiolabeled nucleotide monophosphates into acid insoluble RNA products. Unincorporated radiolabeled substrate was removed by filtration and scintillant was added to the washed and dried filter plate containing radiolabeled RNA product. The amount of RNA product generated by NS5B570-Con1 at the end of the reaction was directly proportional to the amount of light emitted by the scintillant.
The N-terminal 6-histidine tagged HCV polymerase, derived from HCV Con1 strain, genotype 1b (NS5B570n-Con1) contains a 21 amino acid deletion at the C-terminus relative to the full-length HCV polymerase and was purified from E. coli strain BL21 (DE) pLysS. The construct, containing the coding sequence of HCV NS5B Con1 (GenBank accession number AJ242654) was inserted into the plasmid construct pETI 7b, downstream of a T7 promoter expression cassette and transformed into E. coli. A single colony was grown overnight as a starter culture and later used inoculate 10 L of LB media supplemented with 100 μg/mL ampicillin at 37° C. Protein expression was induced by the addition of 0.25 mM isopropyl-β-D-thiogalactopyranoside (IPTG) when optical density at […] of the culture was between 0.6 and 0.8 and cells were harvested after 16 to 18 h at 30° C. NS5B570n-Con1 was purified to homogeneity using a three-step protocol including subsequent column chromatography on Ni-NTA, SP-Sepharose HP and Superdex 75 resins.
Each 50 μl enzymatic reaction contained 20 nM RNA template derived from the complementary sequence of the Internal Ribosome Entry Site (cIRES), 20 nM NS5B570n-Con1 enzyme, 0.5 μCi of tritiated UTP (Perkin Elmer catalog no. TRK-412; specific activity: 30 to 60 Ci/mmol; stock solution concentration from 7.5×10^-5 M to 20.6×10^-6 M), 1 μM each ATP, CTP, and GTP, 40 mM Tris-HCl pH 8.0, 40 mM NaCl, 4 mM DTT (dithiothreitol), 4 mM MgCl2, and 5 μl of compound serial diluted in DMSO. Reaction mixtures were assembled in 96-well filter plates (cat #MADVN0B, Millipore Co.) and incubated for 2 h at 30° C. Reactions were stopped by addition of 10% final (v/v) trichloroacetic acid and incubated for 40 min at 4° C. […]
The amount of light emitted from the scintillant was converted to counts per minute (CPM) on a Topcount® plate reader (Perkin-Elmer, Energy Range: Low, Efficiency Mode Normal, Count Time: 1 min, Background Subtract: none, Cross talk reduction: Off).
Data was analyzed in Excel® (Microsoft®) and ActivityBase® (idbsg). […] All data was expressed as a percentage of the positive control. […]

Question: With `CNC(=O)c1c(-c2ccc(Oc3ccc(F)cc3)cc2)oc2cc(N(C)S(C)(=O)=O)c(C3CC3)cc12` as the compound, how does the pIC50 read?
Answer: Its pIC50 is 7.36.

Question: With `CNC(=O)c1c(-c2ccc(Oc3ccc(F)cc3)cc2)oc2cc(N(C)S(C)(=O)=O)c(C)cc12` as the compound, how does the pIC50 read?
Answer: The pIC50 was 7.54.

Question: With `CNC(=O)c1c(-c2ccc(Nc3ccc(Cl)cc3)cc2)oc2cc(N(CCO)S(C)(=O)=O)c(OC)cc12` [Compound I-3] as the compound, how does the pIC50 read?
Answer: Its pIC50 is 7.43.

Question: `CNC(=O)c1c(-c2ccc(Oc3ccc(F)cc3)cc2)oc2cc(N(CCCC(=O)O)S(C)(=O)=O)c(C3CC3)cc12` was tested. Which pIC50 did it give?
Answer: The pIC50 was 8.40.
